Test results from ChEMBL document CHEMBL5131381, “Design, synthesis, and mechanistic investigations of phenylalanine derivatives containing a benzothiazole moiety as HIV-1 capsid inhibitors with improved metabolic stability” (Eur J Med Chem, 2022).

What was measured:
in vitro [1] = conditions: human, MT4 cells (mock-infected and HIV-1 ROD-infected)
in vitro [2] = conditions: human, MT4 cells (mock-infected and HIV-1 3B-infected)
[3] = test system: Human immunodeficiency virus 1; test: Antiviral activity against HIV-1 3B infected in human MT4 cells assessed as protection against virus-induced cytopathic effect by MTT assay; format: functional, organism-based; conditions: Human immunodeficiency virus 1, 3B
MT4 = test: Cytotoxicity against mock infected human MT4 cells by MTT assay; format: toxicity, cell-based

Structure (SMILES)	selectivity ratio (in vitro [1])	selectivity ratio (in vitro [2])	EC50 [3] [µM]	CC50 (MT4) [µM]
CN(C(=O)[C@H](Cc1ccccc1)NC(=O)c1cccc(C(=O)Nc2cccc(NC(=O)OC(C)(C)C)c2)c1)c1ccc2scnc2c1	> 6.81	–	–	–
CN(C(=O)[C@H](Cc1ccccc1)NC(=O)c1cccc(C(=O)Nc2ccc(NC(=O)OC(C)(C)C)cc2)c1)c1ccc2scnc2c1	< 1	< 1	–	–
CN(C(=O)[C@H](Cc1ccccc1)NC(=O)c1cccc(C(=O)Nc2ccccc2NC(=O)OC(C)(C)C)c1)c1ccc2scnc2c1	> 78.3	> 1.39	139	–
CN(C(=O)[C@H](Cc1ccccc1)NC(=O)c1cccc(C(=O)Nc2ccc(N)cc2)c1)c1ccc2scnc2c1	–	–	–	57.4
CN(C(=O)[C@H](Cc1ccccc1)NC(=O)c1cccc(C(=O)Nc2ccc(C(F)(F)F)cc2)c1)c1ccc2scnc2c1	< 1	≤ 2.23	–	–
C#CCNC(=O)c1cccc(C(=O)N[C@@H](Cc2ccccc2)C(=O)N(C)c2ccc3scnc3c2)c1	–	–	–	134
